Taken from: PubChem BioAssay AID504761 (Drosophila RNAi Screening Center, 2011)
Aim: 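Insect host genes that dengue virus relies on to spread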 (primary screen). System: D.Mel-2 cells from Drosophila. Reagents: long dsRNA against Drosophila genes. Conditions: infection with dengue virus type 2; dose and infection time not stated. Read-out: 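Per well on two replicate plates, imaging gave the percent of cells positive for viral envelope protein, ranked by infection, and a nuclear count of cells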. Scale: infection score: higher = more virus-infected cells; cell count: higher = more cells in the well. Active means: 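Very low infection ranking in both replicate wells (chance probability at most 0.065), then a retest showing infection dropped 1.5-fold or more at p below 0.05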. Meaning of the calls: active = confirmed: knock-down lowers infection; inactive = not picked or not confirmed.
In all, the deposit lists about 22,000 reagents; shown is a random part of those with a known target gene and a result. In the full data, 116 (0.52%) are marked active. 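Calls depend on retest data that are not deposited; infection was ranked per plate without normalising between plates; the unit of the infection score is not given.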 Raw values are not corrected between plates. Reagents against one gene are numbered here. No sequences are given here. The record does not give: the amount of reagent, the time to read-out.

Gene | reagent | infection score, replicate 1 | infection score, replicate 2 | cell count, replicate 1 | cell count, replicate 2 | outcome
Nsun2 | 1 | 3.6 | 6.61 | 5774 | 6324 | inactive
Nsun2 | 2 | 27.2 | 1.53 | 4086 | 720 | inactive
c(2)M | 1 | 11.6 | 17.5 | 6430 | 6246 | inactive
CG13857 | 1 | 17.1 | 21.5 | 6161 | 5557 | inactive
Sfmbt | 1 | 5.98 | 1.8 | 6175 | 6330 | inactive
Sfmbt | 2 | 2.56 | 4.58 | 6122 | 5830 | inactive
Nmd3 | 1 | 5.8 | 12 | 1121 | 2796 | inactive
Nmd3 | 2 | 3.13 | 11.7 | 5823 | 6135 | inactive
alpha-Man-Ib | 1 | 1.46 | 2.8 | 5684 | 6819 | inactive
alpha-Man-Ib | 2 | 9.31 | 5.56 | 6359 | 6426 | inactive
mtSSB | 1 | 5.38 | 8.61 | 5534 | 6121 | inactive
CG1288 | 1 | 10.7 | 3.81 | 6160 | 6294 | inactive
CG1288 | 2 | 6.46 | 6.52 | 6133 | 6561 | inactive
CG11600 | 1 | 3.11 | 7.09 | 6559 | 6463 | inactive
CG11600 | 2 | 4.46 | 5.66 | 6074 | 6026 | inactive
CG13193 | 1 | 21 | 12.3 | 5132 | 6545 | inactive
RpL22 | 1 | 2.81 | 3.32 | 1209 | 903 | inactive
RpL22 | 2 | 0.58 | 1.8 | 1556 | 1167 | inactive
Gr68a | 1 | 6.46 | 6.64 | 5525 | 6532 | inactive
Prosalpha4T2 | 1 | 3.77 | 1.97 | 6718 | 6561 | inactive
Prosalpha4T2 | 2 | 10.4 | 13.1 | 5121 | 4299 | inactive
veil | 1 | 5.79 | 7.05 | 6793 | 5646 | inactive
SmydA-8 | 1 | 3.09 | 9.7 | 6566 | 6248 | inactive
SmydA-8 | 2 | 1.81 | 0.77 | 6185 | 6724 | inactive
